Measurements as given in US4859611A (priority 1986, dated 1989).

Tested on: IgM antibody for AFB1
Settings: AF-FAPyr relative to AF-N^7 -Gua

COc1cc2c(c3oc(=O)c4c(c13)CCC4=O)C1C(O2)OC(N(C=O)c2c(N)nc(N)[nH]c2=O)C1O (stereo not shown)
relative sensitivity of IgM antibody in detecting AF-FAPyr adduct versus AF-N^7 -Gua adduct: approximately four times more sensitive
